Measured values: patent US20170044150A1, “IDENTIFICATION OF COMPOUNDS WHICH INHIBIT ATG8-ATG3 PROTEIN-PROTEIN INTERACTION AND THEIR USE AS ANTIPARASITICAL AGENTS” (THE JOHNS HOPKINS UNIVERSITY, priority 2014, published 2017)

Tested on: P. falciparum 3D7
Experiment: SYBR Green I growth inhibition assay, blood stage
Format: cell-based
Conditions: -log (IC50)/number of heavy atoms
Description: P. falciparum blood stage culturing. P. falciparum 3D7 and FCR3 cultures were maintained using modified, previously published methods at 37° C., 2% hematocrit of human red blood cells (Science 1976, 193, 673-675). Complete culture media consisted of sterile RPMI 1640 media (Life Technologies), supplemented with 10% human serum, 0.005% hypoxanthine, and buffered with final concentrations of 0.6% HEPES and 0.26% NaHCO3. The FCR3 strain was maintained at 3% CO2 and 5% O2, 92% N2 atmosphere, while the 3D7 strain was maintained at 5% CO2, 5% O2, 90% N2 atmosphere.
SYBR Green I growth inhibition assay. 10 μL of 10× compound diluted in RPMI 1640 media (Gibco) with a constant concentration of 1% DMSO was added to a 96 well plate (Costar), 90 μL of 1.5% ring stage, synchronized with 5% w/v sorbitol P. falciparum 3D7 parasites, 1% hematocrit, in culture media with 10% v/v human serum with 10 μg/mL gentamycin. Each compound concentration and 1% v/v DMSO controls were run in triplicate. Plates were incubated at 37° C. in 5% O2, 5% CO2 and 90% N2 for 72 hours. Plates were frozen, thawed, and incubated with 100-μL 2× SYBR green in lysis buffer (20 mM Tris pH 7.5, 5 mM EDTA, 0.008% Saponin, 0.08% TritonX-100) in the dark for at least one hour. Fluorescence was measured with a plate reader (HTS 7000, Perkin Elmer) at excitation/emission wavelengths of 485/535 nm.
Plasmodium parasite growth inhibition assay. P. falciparum 3D7 parasites were cultured as previously described (J Med Chem 57:4521-4531(2014)). Briefly, the parasites were cultured in 10% v/v human serum with 10 μg/mL gentamycin and synchronized with 5% w/v sorbitol. 1.5% ring stage parasites were added to 96 well plates (Costar) containing serial dilutions, performed in triplicate, of compound in RPMI 1640 media (Gibco). Plates were incubated at 37° C. in 5% O2, 5% CO2, and 90% N2 for 72 h. Plates were frozen, thawed, and incubated with 100 μL 2× SYBR green in lysis buffer (20 mM Tris pH 7.5, 5 mM EDTA, 0.008% Saponin, 0.08% TritonX-100) in the dark for 1 h. Fluorescence was measured with a plate reader (HTS 7000, PerkinElmer) at excitation/emission wavelengths of 485/535 nm.

## Cc1ccc(Nc2nc(-c3ccccn3)cs2)cc1 [Compound 1, N-(4-methylphenyl)-4-pyridin-2-yl-1,3-thiazol-2-amine]
  LEAN (Blood stage): 0.31

## CSc1ccccc1C(=O)Nc1nc(-c2ccccn2)cs1 [Compound 2, 2-methylsulfanyl-N-(4-pyridin-2-yl-1,3-thiazol-2-yl)benzamide]
  LEAN (Blood stage): 0.30

## O=C(Nc1nc(-c2ccccn2)cs1)c1ccccc1Br [Compound 3, 2-bromo-N-(4-pyridin-2-yl-1,3-thiazol-2-yl)benzamide]
  LEAN (Blood stage): 0.35

## O=C(CCCC[C@H]1SC[C@H]2NC(=O)N[C@H]21)NCCCCCC(=O)NNCc1ccc(C(=O)Nc2nc(-c3ccccn3)cs2)cc1 [Compound 8, 4-[[2-[6-[5-[(3aR,4R,6aS)-2-Oxo-1,3,3a,4,6,6a-hexahydrothieno[3,4-d]imidazol-4-yl]pentanoylamino]hexanoyl]hydrazinyl]methyl]-N-(4-pyridin-2-yl-1,3-thiazol-2-yl)benzamide]
  LEAN (Blood stage): 0.23
